Measurements published in ChEMBL document CHEMBL4811225 (J Med Chem, 2021).

Sequences of proteins named here, by UniProt entry; tags and fusion partners are left off.
UniProt P04757, whole entry, looked up: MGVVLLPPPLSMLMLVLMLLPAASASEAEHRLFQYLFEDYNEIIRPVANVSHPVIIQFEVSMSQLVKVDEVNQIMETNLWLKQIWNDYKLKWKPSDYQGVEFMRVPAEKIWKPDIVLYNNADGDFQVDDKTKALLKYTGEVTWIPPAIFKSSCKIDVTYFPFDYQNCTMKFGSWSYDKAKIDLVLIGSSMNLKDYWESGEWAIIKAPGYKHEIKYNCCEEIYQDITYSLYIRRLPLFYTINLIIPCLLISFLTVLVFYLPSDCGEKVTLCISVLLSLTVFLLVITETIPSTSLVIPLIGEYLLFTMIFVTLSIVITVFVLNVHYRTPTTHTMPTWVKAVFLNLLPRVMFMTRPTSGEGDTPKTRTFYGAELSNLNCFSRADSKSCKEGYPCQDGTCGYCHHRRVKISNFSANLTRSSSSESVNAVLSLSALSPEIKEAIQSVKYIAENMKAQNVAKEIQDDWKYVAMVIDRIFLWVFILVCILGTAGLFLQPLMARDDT
UniProt P12392, whole entry, looked up: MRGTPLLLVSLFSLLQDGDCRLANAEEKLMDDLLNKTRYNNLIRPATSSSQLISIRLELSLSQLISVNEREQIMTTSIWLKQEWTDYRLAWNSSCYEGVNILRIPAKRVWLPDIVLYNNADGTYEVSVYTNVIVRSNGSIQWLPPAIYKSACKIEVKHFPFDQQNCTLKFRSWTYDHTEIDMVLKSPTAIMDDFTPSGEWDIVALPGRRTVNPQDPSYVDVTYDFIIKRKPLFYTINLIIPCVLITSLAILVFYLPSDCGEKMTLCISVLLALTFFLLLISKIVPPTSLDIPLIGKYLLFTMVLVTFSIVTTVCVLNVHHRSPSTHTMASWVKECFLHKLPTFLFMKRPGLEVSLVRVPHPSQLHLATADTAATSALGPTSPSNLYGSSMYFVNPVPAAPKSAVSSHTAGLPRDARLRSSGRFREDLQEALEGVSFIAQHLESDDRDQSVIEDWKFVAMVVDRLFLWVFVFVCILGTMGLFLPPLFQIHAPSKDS
UniProt P43143, whole entry, looked up: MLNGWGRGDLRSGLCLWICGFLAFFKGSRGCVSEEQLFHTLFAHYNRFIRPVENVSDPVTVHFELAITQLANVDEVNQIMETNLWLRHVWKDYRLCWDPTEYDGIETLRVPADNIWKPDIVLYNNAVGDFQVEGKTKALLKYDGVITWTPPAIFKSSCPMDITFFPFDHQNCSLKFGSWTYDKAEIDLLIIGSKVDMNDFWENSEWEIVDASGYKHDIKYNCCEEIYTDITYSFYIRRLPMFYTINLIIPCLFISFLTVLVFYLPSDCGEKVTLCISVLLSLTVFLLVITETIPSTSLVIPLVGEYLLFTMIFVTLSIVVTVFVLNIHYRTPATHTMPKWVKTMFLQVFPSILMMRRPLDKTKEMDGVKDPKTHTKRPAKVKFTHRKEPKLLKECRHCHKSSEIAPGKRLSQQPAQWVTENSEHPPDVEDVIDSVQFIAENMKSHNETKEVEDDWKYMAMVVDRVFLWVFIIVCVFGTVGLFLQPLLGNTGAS
UniProt P30926, whole entry, looked up: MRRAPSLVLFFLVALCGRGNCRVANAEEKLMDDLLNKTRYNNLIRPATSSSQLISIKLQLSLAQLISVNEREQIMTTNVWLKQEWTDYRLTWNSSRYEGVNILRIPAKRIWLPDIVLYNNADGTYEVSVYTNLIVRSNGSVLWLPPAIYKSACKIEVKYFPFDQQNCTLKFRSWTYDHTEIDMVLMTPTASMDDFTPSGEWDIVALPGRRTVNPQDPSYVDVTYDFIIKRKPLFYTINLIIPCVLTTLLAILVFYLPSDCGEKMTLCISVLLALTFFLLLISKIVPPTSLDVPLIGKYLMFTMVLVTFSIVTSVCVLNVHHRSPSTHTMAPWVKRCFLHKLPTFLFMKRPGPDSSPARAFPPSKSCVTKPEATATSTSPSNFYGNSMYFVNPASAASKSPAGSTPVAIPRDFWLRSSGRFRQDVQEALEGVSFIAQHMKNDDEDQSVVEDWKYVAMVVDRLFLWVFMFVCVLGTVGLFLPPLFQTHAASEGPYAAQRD
UniProt P32297, whole entry, looked up: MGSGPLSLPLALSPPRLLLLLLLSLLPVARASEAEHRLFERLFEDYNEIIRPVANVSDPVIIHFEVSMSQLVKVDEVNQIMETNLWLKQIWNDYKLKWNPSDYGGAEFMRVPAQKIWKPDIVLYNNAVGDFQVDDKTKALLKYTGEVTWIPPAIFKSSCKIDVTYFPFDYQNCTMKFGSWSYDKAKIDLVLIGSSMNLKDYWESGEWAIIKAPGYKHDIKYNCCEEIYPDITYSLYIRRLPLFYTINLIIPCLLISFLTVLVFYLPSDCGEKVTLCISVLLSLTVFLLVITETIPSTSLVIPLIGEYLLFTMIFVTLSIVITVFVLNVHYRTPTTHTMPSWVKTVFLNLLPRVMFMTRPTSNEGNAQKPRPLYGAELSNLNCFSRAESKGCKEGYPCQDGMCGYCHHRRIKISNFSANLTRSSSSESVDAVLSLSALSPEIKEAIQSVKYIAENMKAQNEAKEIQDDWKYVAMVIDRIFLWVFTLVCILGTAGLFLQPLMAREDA
UniProt Q15825, whole entry, looked up: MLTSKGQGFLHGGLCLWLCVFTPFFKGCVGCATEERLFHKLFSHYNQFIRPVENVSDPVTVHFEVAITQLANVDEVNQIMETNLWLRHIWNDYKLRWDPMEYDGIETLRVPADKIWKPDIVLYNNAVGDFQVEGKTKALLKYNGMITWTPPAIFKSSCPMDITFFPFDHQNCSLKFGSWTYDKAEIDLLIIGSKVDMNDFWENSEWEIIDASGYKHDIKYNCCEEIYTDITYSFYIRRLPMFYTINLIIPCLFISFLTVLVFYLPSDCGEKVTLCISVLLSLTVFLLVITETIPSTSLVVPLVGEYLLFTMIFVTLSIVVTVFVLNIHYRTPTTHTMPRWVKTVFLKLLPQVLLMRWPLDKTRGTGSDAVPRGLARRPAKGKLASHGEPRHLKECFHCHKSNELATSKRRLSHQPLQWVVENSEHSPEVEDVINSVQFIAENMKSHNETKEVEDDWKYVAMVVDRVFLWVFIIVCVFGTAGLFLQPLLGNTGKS

What was measured:
Assay type in all cases: cell-based
Conditions in all cases: Oocyte
[1] = target: T1, Nicotinic acetylcholine receptor alpha6/alpha3/beta4 (Rattus norvegicus) (UniProt P04757+P12392+P43143); assay: Inhibition of rat alpha6/alpha3beta4 nAChR expressed in Xenopus laevis oocytes assessed as inhibition of acetylcholine-induced current response by measuring fold change measured after 5 min by two-electrode voltage-clamp method relative to peIA
[2] = target: T1, Nicotinic acetylcholine receptor alpha6/alpha3/beta4 (Rattus norvegicus); assay: Inhibition of rat alpha6/alpha3beta4 nAChR expressed in Xenopus laevis oocytes assessed as inhibition of acetylcholine-induced current response measured after 5 min by two-electrode voltage-clamp method relative to peIA
[3] = target: T2, Nicotinic acetylcholine receptor alpha6/alpha3/beta4 (Homo sapiens, UniProt P30926+P32297+Q15825); assay: Inhibition of human alpha6/alpha3beta4 nAChR expressed in Xenopus laevis oocytes assessed as inhibition of acetylcholine-induced current response measured after 5 min by two-electrode voltage-clamp relative to peIA
[4] = target: T2, Nicotinic acetylcholine receptor alpha6/alpha3/beta4; assay: Inhibition of human alpha6/alpha3beta4 nAChR expressed in Xenopus laevis oocytes assessed as inhibition of acetylcholine-induced current response by measuring fold change measured after 5 min by two-electrode voltage-clamp method relative to peIA

Compound	fold change (FC) [1]	deltalogIC50 [2]	deltalogIC50 [3]	fold change (FC) [4]
CC(C)C[C@@H]1NC(=O)[C@H](CCC(=O)O)NC(=O)[C@H](C)NC(=O)[C@H](Cc2cnc[nH]2)NC(=O)[C@H](CC(N)=O)NC(=O)[C@H](C(C)C)NC(=O)[C@H](CO)NC(=O)[C@@H]2CSSC[C@H](NC(=O)CN)C(=O)N[C@@H](CSSC[C@@H](C(N)=O)NC1=O)C(=O)N[C@@H](CO)C(=O)N[C@@H](Cc1cnc[nH]1)C(=O)N1CCC[C@H]1C(=O)N[C@@H](C)C(=O)N2	3	0.5	1.1	–
CC(C)C[C@@H]1NC(=O)[C@H](CCC(=O)O)NC(=O)[C@@H]2CCCN2C(=O)[C@H](Cc2cnc[nH]2)NC(=O)[C@H](CC(N)=O)NC(=O)[C@H](CCCNC(=N)N)NC(=O)[C@H](CO)NC(=O)[C@@H]2CSSC[C@H](NC(=O)CN)C(=O)N[C@@H](CSSC[C@@H](C(N)=O)NC1=O)C(=O)N[C@@H](CO)C(=O)N[C@@H](Cc1cnc[nH]1)C(=O)N1CCC[C@H]1C(=O)N[C@@H](C)C(=O)N2	–	1.1	1.6	–
CC(C)C[C@@H]1NC(=O)[C@H](CCC(=O)O)NC(=O)[C@@H]2CCCN2C(=O)[C@H](Cc2cnc[nH]2)NC(=O)[C@H](CC(N)=O)NC(=O)[C@H](CC(C)C)NC(=O)[C@H](CO)NC(=O)[C@@H]2CSSC[C@H](NC(=O)CN)C(=O)N[C@@H](CSSC[C@@H](C(N)=O)NC1=O)C(=O)N[C@@H](CO)C(=O)N[C@@H](Cc1cnc[nH]1)C(=O)N1CCC[C@H]1C(=O)N[C@@H](C)C(=O)N2	> 3	-0.3	0.2	–
CC(C)[C@@H]1NC(=O)[C@H](CO)NC(=O)[C@@H]2CSSC[C@H](NC(=O)CN)C(=O)N[C@@H](CSSC[C@@H](C(N)=O)NC(=O)[C@H](CCCNC(=N)N)NC(=O)[C@H](CCC(=O)O)NC(=O)[C@@H]3CCCN3C(=O)[C@H](Cc3cnc[nH]3)NC(=O)[C@H](CC(N)=O)NC1=O)C(=O)N[C@@H](CO)C(=O)N[C@@H](Cc1cnc[nH]1)C(=O)N1CCC[C@H]1C(=O)N[C@@H](C)C(=O)N2	< 3	0.5	0.7	–
CC(C)C[C@@H]1NC(=O)[C@H](CCC(=O)O)NC(=O)[C@@H]2CCCN2C(=O)[C@H](Cc2cnc[nH]2)NC(=O)[C@H](CC(N)=O)NC(=O)[C@H](C(C)C)NC(=O)[C@H](CO)NC(=O)[C@@H]2CSSC[C@H](NC(=O)CN)C(=O)N[C@@H](CSSC[C@@H](C(N)=O)NC1=O)C(=O)N[C@@H](CC(C)C)C(=O)N[C@@H](Cc1cnc[nH]1)C(=O)N1CCC[C@H]1C(=O)N[C@@H](C)C(=O)N2	5	1.5	1.1	–
CC(C)C[C@@H]1NC(=O)[C@H](CCC(=O)O)NC(=O)[C@@H]2CCCN2C(=O)[C@H](Cc2cnc[nH]2)NC(=O)[C@H](C)NC(=O)[C@H](C(C)C)NC(=O)[C@H](CO)NC(=O)[C@@H]2CSSC[C@H](NC(=O)CN)C(=O)N[C@@H](CSSC[C@@H](C(N)=O)NC1=O)C(=O)N[C@@H](CO)C(=O)N[C@@H](Cc1cnc[nH]1)C(=O)N1CCC[C@H]1C(=O)N[C@@H](C)C(=O)N2	–	-0.4	0.2	< 3
CC(C)C[C@@H]1NC(=O)[C@H](CCC(=O)O)NC(=O)[C@@H]2CCCN2C(=O)[C@H](Cc2cnc[nH]2)NC(=O)[C@H](CC(N)=O)NC(=O)[C@H](C(C)C)NC(=O)[C@H](CO)NC(=O)[C@@H]2CSSC[C@H](NC(=O)CN)C(=O)N[C@@H](CSSC[C@@H](C(N)=O)NC1=O)C(=O)N[C@@H](C(C)C)C(=O)N[C@@H](Cc1cnc[nH]1)C(=O)N1CCC[C@H]1C(=O)N[C@@H](C)C(=O)N2	5	0.9	0.6	–
CC[C@H](C)[C@@H]1NC(=O)[C@@H]2CSSC[C@@H](C(N)=O)NC(=O)[C@H](CC(C)C)NC(=O)[C@H](CCC(=O)O)NC(=O)[C@@H]3CCCN3C(=O)[C@H](Cc3cnc[nH]3)NC(=O)[C@H](CC(N)=O)NC(=O)[C@H](C(C)C)NC(=O)[C@H](CO)NC(=O)[C@H](CSSC[C@H](NC(=O)CN)C(=O)N2)NC(=O)[C@H](C)NC(=O)[C@@H]2CCCN2C(=O)[C@H](Cc2cnc[nH]2)NC1=O	5	1.2	0.7	–
CC(C)C[C@@H]1NC(=O)[C@H](CCC(=O)O)NC(=O)[C@@H]2CCCN2C(=O)[C@H](Cc2cnc[nH]2)NC(=O)[C@H](CC(N)=O)NC(=O)[C@H](C(C)C)NC(=O)[C@H](CO)NC(=O)[C@@H]2CSSC[C@H](NC(=O)CN)C(=O)N[C@@H](CSSC[C@@H](C(N)=O)NC1=O)C(=O)N[C@@H](C)C(=O)N[C@@H](Cc1cnc[nH]1)C(=O)N1CCC[C@H]1C(=O)N[C@@H](C)C(=O)N2	–	0.1	0.5	–
CC(C)[C@@H]1NC(=O)[C@H](CO)NC(=O)[C@@H]2CSSC[C@H](NC(=O)CN)C(=O)N[C@@H](CSSC[C@@H](C(N)=O)NC(=O)[C@H](C)NC(=O)[C@H](CCC(=O)O)NC(=O)[C@@H]3CCCN3C(=O)[C@H](Cc3cnc[nH]3)NC(=O)[C@H](CC(N)=O)NC1=O)C(=O)N[C@@H](CO)C(=O)N[C@@H](Cc1cnc[nH]1)C(=O)N1CCC[C@H]1C(=O)N[C@@H](C)C(=O)N2	–	0.3	1.1	–
CC(C)C[C@@H]1NC(=O)[C@H](CCC(=O)O)NC(=O)[C@@H]2CCCN2C(=O)[C@H](Cc2cnc[nH]2)NC(=O)[C@H](CC(N)=O)NC(=O)[C@H](C(C)C)NC(=O)[C@H](CO)NC(=O)[C@@H]2CSSC[C@H](NC(=O)CN)C(=O)N[C@@H](CSSC[C@@H](C(N)=O)NC1=O)C(=O)N[C@@H](CCO)C(=O)N[C@@H](Cc1cnc[nH]1)C(=O)N1CCC[C@H]1C(=O)N[C@@H](C)C(=O)N2	5	0.7	0.6	–
CC(C)C[C@@H]1NC(=O)[C@H](CCC(=O)O)NC(=O)[C@@H]2CCCN2C(=O)[C@H](Cc2cnc[nH]2)NC(=O)[C@H](CCC(=O)O)NC(=O)[C@H](C(C)C)NC(=O)[C@H](CO)NC(=O)[C@@H]2CSSC[C@H](NC(=O)CN)C(=O)N[C@@H](CSSC[C@@H](C(N)=O)NC1=O)C(=O)N[C@@H](CO)C(=O)N[C@@H](Cc1cnc[nH]1)C(=O)N1CCC[C@H]1C(=O)N[C@@H](C)C(=O)N2	–	1.2	1	–
CC(C)C[C@@H]1NC(=O)[C@H](CCC(=O)O)NC(=O)[C@@H]2CCCN2C(=O)[C@H](Cc2cnc[nH]2)NC(=O)[C@H](CC(N)=O)NC(=O)[C@H](C(C)C)NC(=O)[C@H](Cc2ccc(O)cc2)NC(=O)[C@@H]2CSSC[C@H](NC(=O)CN)C(=O)N[C@@H](CSSC[C@@H](C(N)=O)NC1=O)C(=O)N[C@@H](CO)C(=O)N[C@@H](Cc1cnc[nH]1)C(=O)N1CCC[C@H]1C(=O)N[C@@H](C)C(=O)N2	–	-0.2	0.7	5
CC[C@H](C)[C@@H]1NC(=O)[C@H](CO)NC(=O)[C@@H]2CSSC[C@H](NC(=O)CN)C(=O)N[C@@H](CSSC[C@@H](C(N)=O)NC(=O)[C@H](CC(C)C)NC(=O)[C@H](CCC(=O)O)NC(=O)[C@@H]3CCCN3C(=O)[C@H](Cc3cnc[nH]3)NC(=O)[C@H](CC(N)=O)NC1=O)C(=O)N[C@@H](CO)C(=O)N[C@@H](Cc1cnc[nH]1)C(=O)N1CCC[C@H]1C(=O)N[C@@H](C)C(=O)N2	–	0.4	0.1	–
CC(C)C[C@@H]1NC(=O)[C@H](CCC(=O)O)NC(=O)[C@@H]2CCCN2C(=O)[C@H](Cc2cnc[nH]2)NC(=O)[C@H](CC(N)=O)NC(=O)[C@H](C(C)C)NC(=O)[C@H](CCCNC(=N)N)NC(=O)[C@@H]2CSSC[C@H](NC(=O)CN)C(=O)N[C@@H](CSSC[C@@H](C(N)=O)NC1=O)C(=O)N[C@@H](CO)C(=O)N[C@@H](Cc1cnc[nH]1)C(=O)N1CCC[C@H]1C(=O)N[C@@H](C)C(=O)N2	–	1.9	1.2	14
CC(C)C[C@@H]1NC(=O)[C@H](CCC(=O)O)NC(=O)[C@@H]2CCCN2C(=O)[C@H](Cc2cnc[nH]2)NC(=O)[C@H](CC(N)=O)NC(=O)[C@H](C(C)C)NC(=O)[C@H](C)NC(=O)[C@@H]2CSSC[C@H](NC(=O)CN)C(=O)N[C@@H](CSSC[C@@H](C(N)=O)NC1=O)C(=O)N[C@@H](CO)C(=O)N[C@@H](Cc1cnc[nH]1)C(=O)N1CCC[C@H]1C(=O)N[C@@H](C)C(=O)N2	3	0.5	1	–
CC(C)C[C@@H]1NC(=O)[C@H](CC(N)=O)NC(=O)[C@@H]2CCCN2C(=O)[C@H](Cc2cnc[nH]2)NC(=O)[C@H](CC(N)=O)NC(=O)[C@H](C(C)C)NC(=O)[C@H](CO)NC(=O)[C@@H]2CSSC[C@H](NC(=O)CN)C(=O)N[C@@H](CSSC[C@@H](C(N)=O)NC1=O)C(=O)N[C@@H](CO)C(=O)N[C@@H](Cc1cnc[nH]1)C(=O)N1CCC[C@H]1C(=O)N[C@@H](C)C(=O)N2	–	0.1	0.4	–
CCCC[C@@H]1NC(=O)[C@H](CO)NC(=O)[C@@H]2CSSC[C@H](NC(=O)CN)C(=O)N[C@@H](CSSC[C@@H](C(N)=O)NC(=O)[C@H](CC(C)C)NC(=O)[C@H](CCC(=O)O)NC(=O)[C@@H]3CCCN3C(=O)[C@H](Cc3cnc[nH]3)NC(=O)[C@H](CC(N)=O)NC1=O)C(=O)N[C@@H](CO)C(=O)N[C@@H](Cc1cnc[nH]1)C(=O)N1CCC[C@H]1C(=O)N[C@@H](C)C(=O)N2	–	0.6	0.3	–
CC(C)C[C@@H]1NC(=O)[C@H](C)NC(=O)[C@@H]2CCCN2C(=O)[C@H](Cc2cnc[nH]2)NC(=O)[C@H](CC(N)=O)NC(=O)[C@H](C(C)C)NC(=O)[C@H](CO)NC(=O)[C@@H]2CSSC[C@H](NC(=O)CN)C(=O)N[C@@H](CSSC[C@@H](C(N)=O)NC1=O)C(=O)N[C@@H](CO)C(=O)N[C@@H](Cc1cnc[nH]1)C(=O)N1CCC[C@H]1C(=O)N[C@@H](C)C(=O)N2	–	0.2	1	–
CC(C)C[C@@H]1NC(=O)[C@H](CCC(=O)O)NC(=O)[C@@H]2CCCN2C(=O)[C@H](Cc2cnc[nH]2)NC(=O)[C@H](CC(N)=O)NC(=O)[C@H](C)NC(=O)[C@H](CO)NC(=O)[C@@H]2CSSC[C@H](NC(=O)CN)C(=O)N[C@@H](CSSC[C@@H](C(N)=O)NC1=O)C(=O)N[C@@H](CO)C(=O)N[C@@H](Cc1cnc[nH]1)C(=O)N1CCC[C@H]1C(=O)N[C@@H](C)C(=O)N2	–	0.1	0.5	–
